Compound potency records, mixed from different reports. Data source: NIAID ChemDB in PubChem.

All rows: tests in culture; agent: Mycobacterium tuberculosis

MIC bound: limit read from a one-dose screen. Conditions beyond the fields shown may differ between rows. A number after MIC or MFC names an inhibition level or a share of isolates. An empty or dashed field is not shown. Percent inhibition refers to the dose given; in toxicity tests it is the harm to the cells. ECn: concentration that inhibits the pathogen or its effect by n%.

compound	setting	tested at	strain	measure	mutations	method	result
O=C(Nc1sc(-c2ccc(OCc3c(Cl)cccc3Cl)cc2)cc1C(=O)O)c1ccccc1F	-	-	H37Rv	MIC	-	resazurin	48.4 µM
CCN1CCc2c(sc(NC(=O)c3c(F)c(F)c(F)c(F)c3F)c2C(=O)NC)C1	-	-	ATCC35838	EC50	-	turbidity	1.1 µM
CC(C)C[C@@H]1NC(=O)[C@H](Cc2c[nH]c3ccccc23)NC(=O)[C@@H](CCCN=C(N)N)NC(=O)[C@H](CC(N)=O)NC(=O)[C@H](C(C)C)NC(=O)[C@@H](CC(C)C)NC1=O	-	-	CDC1551	MIC90	-	turbidity	0.99 µM
CCCCNc1sc(-c2ccc(OCc3c(Cl)cccc3Cl)cc2)cc1C(=O)O	-	-	H37Rv	MIC	-	resazurin	7.7 µM
CC1SC2(CCCCC2C)N(NC(=O)C(O)(c2ccccc2)c2ccccc2)C1=O	-	6.25 µg/mL	H37Rv	inhibition	-	-	38%
CO[C@H]1/C=C/O[C@@]2(C)Oc3c(C)c(O)c4c(O)c(c(/C=N/N5CCN(C)CC5)c(O)c4c3C2=O)NC(=O)/C(C)=C\C=C\[C@H](C)[C@H](O)[C@@H](C)[C@@H](O)[C@@H](C)[C@H](OC(C)=O)[C@@H]1C	-	-	H37Ra	EC50	-	turbidity	0.04 µM
COc1cc(C2=N/C(=C\c3cccc(O)c3O)C(=O)O2)cc(OC)c1OC	-	12.5 µg/mL	H37Rv	inhibition	-	BACTEC	1%
O=C(Nc1sc(-c2ccc(OCc3c(Cl)cccc3Cl)cc2)cc1C(=O)O)c1ccc(Cl)cc1	-	-	H37Rv	MIC	-	resazurin	3.7 µM
C=C(C)[C@H]1Cc2c(ccc3c2O[C@@H]2COc4cc(OC)c(OC)cc4[C@@H]2C3=O)O1	-	-	H37Rv	MIC	-	BACTEC	≥128 µg/mL
CCC(C)C(=O)N[C@H](Cc1ccccc1)C(=O)N[C@H]1C(=O)N[C@H](CC(C)C)C(=O)N[C@H](Cc2ccccc2)C(=O)N[C@@H](CC(C)C)C(=O)N[C@H]([C@@H](C)O)C(=O)N[C@@H](CO)C(=O)O[C@H]1C	-	-	-	MIC	-	-	12 µg/mL
CCOC(=O)c1c(NC(=O)C2C=C(C(F)(F)F)C=C2C(F)(F)F)sc2c1CCN(CC)C2	-	-	H37Rv	MIC	-	resazurin	>100 µg/mL
CC(C)=CCC[C@H](C)[C@H]1CC[C@H](C)c2cc(O)ccc21	-	-	-	MIC	-	-	6.25 µg/mL
CC1COc2c(N3CCN(C)CC3)c(F)cc3c(=O)c(C(=O)O)cn1c23	-	-	38 strains	MIC50	-	-	0.39 µg/mL
CCNC(=O)c1c(NC(=O)c2c(F)c(F)c(F)c(F)c2F)sc2c1CCN(CC)C2	-	-	H37Rv	EC50	rpoB S522L mutant	turbidity	3.3 µM
O=C(NCc1ccc(N2CCN(Cc3ccccc3)CC2)nc1)c1ccc([N+](=O)[O-])o1	-	-	UT26	MIC	-	-	0.012 µg/mL
CC(=O)OC1=C(C(C)C)C(=O)C2=C(C1=O)[C@@]1(C)CCCC(C)(C)[C@@H]1[C@H](OC(C)=O)[C@H]2OC(C)=O	-	-	MDR	MIC100	-	MTT	12.5 µg/mL
CC(=O)O[C@H]1CC[C@@]2(C)C(CC[C@]3(C)C2CCC2[C@@]4(C)CC[C@H](C(C)(C)O)C4C[C@H](O)[C@]23C)C1(C)C	-	-	-	MIC	-	-	12.5 µg/mL
CCCC1CCC2(CC1)SCC(=O)N2NC(=O)C(O)(c1ccccc1)c1ccccc1	-	6.25 µg/mL	H37Rv	inhibition	-	-	38%
CCOC(=O)c1c(NC(=O)c2c(F)c(F)c(F)c(F)c2F)sc2c1CCOC2	-	-	ATCC35838	MIC	-	turbidity	0.23 µM
O=C1CSC2=NC3=C(COC/C3=C/c3ccc(F)cc3)C(c3ccc(F)cc3)N12	-	12.5 µg/mL	H37Rv	inhibition	-	BACTEC	27%
CC(C)C[C@@H]1NC(=O)[C@H](Cc2c[nH]c3ccccc23)NC(=O)[C@@H](CCCN)NC(=O)[C@H](CC(N)=O)NC(=O)[C@H](C(C)C)NC(=O)[C@@H](CC(C)C)NC1=O	-	-	H37Ra	MIC90	-	turbidity	1.1 µM
O=C(Nc1sc(-c2ccc(OCc3ccc(Cl)c(Cl)c3)cc2)cc1C(=O)O)c1ccc(Cl)cc1	-	-	H37Rv	MIC	-	resazurin	110.2 µM
N#Cc1c(NC(=O)c2c(F)c(F)c(F)c(F)c2F)sc2c1CCOC2	-	-	-	EC90	-	low oxygen	18 µM
CO[C@H]1/C=C/O[C@@]2(C)Oc3c(C)c(O)c4c(O)c(c(/C=N/N5CCN(C)CC5)c(O)c4c3C2=O)NC(=O)/C(C)=C\C=C\[C@H](C)[C@H](O)[C@@H](C)[C@@H](O)[C@@H](C)[C@H](OC(C)=O)[C@@H]1C	-	-	38 strains	MIC50	-	-	0.1 µg/mL
CCCCCCCOc1ccccc1NC(=O)OCCN1CCCCC1	-	-	My 331/88	MIC	-	-	16 µM
CC(=O)O[C@H]1C2=C(C(=O)C(C(=O)Oc3ccc(Cl)cc3)=C(C(C)C)C2=O)[C@@]2(C)CCCC(C)(C)[C@@H]2C1C(=O)Oc1ccc(Cl)cc1	-	-	H37Rv	MIC100	-	MTT	>25 µg/mL
N#Cc1c(N)[n+]([O-])c2c([n+]1[O-])CCCC2	-	-	H37Rv	MIC	-	BACTEC	≥12.5 µg/mL
CCCCCOc1cccc(NC(=O)OC(C)CN2CCCCC2)c1	-	-	My 331/88	MIC	-	-	8 µM
Nc1ccc(C(=O)N/N=C/c2ccccc2O)cc1	-	12.5 µg/mL	H37Rv	inhibition	-	BACTEC	10%
CC(=O)O[C@H]1C2=C(C(=O)C(OC(=O)c3ccccc3)=C(C(C)C)C2=O)[C@@]2(C)CCCC(C)(C)[C@@H]2[C@@H]1OC(=O)c1ccccc1	-	-	MDR	MIC100	-	MTT	1.56 µg/mL
NC1=C(O)C(=O)C(c2c[nH]c3ccc(OCc4ccccc4)cc23)O1	-	-	H37Rv	MIC bound	-	BACTEC	>12.5 µg/mL
CCN1CCc2c(sc(NC(=O)c3c(F)c(F)c(F)c(F)c3F)c2C#N)C1	-	-	H37Rv	EC90	katG Y155 truncation mutant	turbidity	21 µM
CCCCCOc1cccc(NC(=O)OC(COCC)CN2CCCCC2)c1	-	-	My 331/88	MIC	-	-	16 µM
CCOC(=O)c1cc(-c2ccccc2)sc1NC(=O)C1C=C(C(F)(F)F)C=C1C(F)(F)F	-	-	H37Rv	MIC	-	resazurin	>100 µg/mL
CC(C)C1=C(O)C2=C(C(=O)C1=O)[C@@]1(C)CCCC(C)(C)C1C=C2	-	-	H37Rv	MIC100	-	MTT	>25 µg/mL
CC1=CC[C@H]2[C@]3(C)CC[C@@]4(C)[C@@H]5CC(C)(C)CC[C@]5(C)CC[C@]4(C)[C@H]3CC[C@]12C	-	12.5 µg/mL	H37Rv	inhibition	-	BACTEC	0%
CCCCNC(=O)c1c(N)sc2c1CCCC2	-	-	H37Rv	MIC	-	resazurin	>100 µg/mL
CCCC(=O)O[C@@H]1C(OC(C)=O)C2=C(C(=O)C(=O)C(C(C)C)=C2O)[C@@]2(C)CCCC(C)(C)[C@H]12	-	-	MDR	MIC100	-	MTT	12.5 µg/mL
C/C(CCn1[nH]c(=O)ccc1=O)=N\NC(=O)C(N)=O	-	12.5 µg/mL	H37Rv	inhibition	-	BACTEC	-11%
CC(C)C[C@@H]1NC(=O)[C@H](Cc2c[nH]c3ccccc23)NC(=O)[C@H](CCCCN)NC(=O)[C@H](CC(N)=O)NC(=O)[C@H](C(C)C)NC(=O)[C@@H](CC(C)C)NC1=O	-	-	HN353	MIC90	-	turbidity	>30 µM
CCCC/C(C)=N/NC(=S)SC	-	-	CS-R	MIC	-	-	6.4 µg/mL
COc1ccc(OC(=O)C2=C(C(C)C)C(=O)C3=C(C2=O)[C@@]2(C)CCCC(C)(C)[C@@H]2[C@H](O)[C@H]3OC(C)=O)cc1	-	-	MDR	MIC100	-	MTT	0.39 µg/mL
O=C(NCc1ccc(N2CCN(Cc3ccccc3)CC2)cc1)c1ccc([N+](=O)[O-])o1	-	-	CDC1551	MIC	-	-	0.024 µg/mL
NNC(=O)c1ccncc1	-	-	H37Rv	EC50	-	turbidity	0.06 µM
COc1cccc(C(=O)Nc2sc(-c3ccc(OCc4c(Cl)cccc4Cl)cc3)cc2C(=O)O)c1	-	-	H37Rv	MIC	-	resazurin	31.2 µM
OC1/C=C\C=C/CN2CC3C=C4CCCCCCCCCC/C=C\CCN5CCC3C(C1)(C5)C42	-	-	-	MIC	-	-	8 µg/mL
CCN1CC(C(=O)NC(C)C(=O)O)Cc2ccccc21	-	-	H37Rv	MIC bound	-	BACTEC	>12.5 µg/mL
O[C@]12CCCCCC[C@@H]3CCN4CCC[C@](O)(CCCCCC[C@@H]5CCN(CCC1)[C@H]2O5)[C@@H]4O3	-	-	-	MIC	-	-	3.94 µg/mL
Cn1c(SSc2ccc(-c3cccnc3)n2C)ccc1-c1cccnc1	-	-	-	MIC bound	-	resazurin	>6.25 µg/mL
CCCCCCNc1sc(-c2ccc(OCc3c(Cl)cccc3Cl)cc2)cc1C(=O)O	-	-	H37Rv	MIC	-	resazurin	58.5 µM
CC1CCC2(O)C3(C)CC4(O)OC2(C1O)C1(O)C3(O)C(OC(=O)c2ccc[nH]2)C(O)(C(C)C)C41C	-	12.8 µg/mL	H37Rv	inhibition	-	BACTEC	6%
CC1COc2c(N3CCN(C)CC3)c(F)cc3c(=O)c(C(=O)O)cn1c23	clinical isolate	-	Clinical isolates	MIC	-	-	1 µg/mL
CCOc1ccc(NC(=O)C(=O)Nn2c(N)nnc2N)cc1	-	12.5 µg/mL	H37Rv	inhibition	-	BACTEC	-6%
CC1CCC2(CC1)SCC(=O)N2NC(=O)C(O)(c1ccccc1)c1ccccc1	-	6.25 µg/mL	H37Rv	inhibition	-	-	0%
CC1(C)CCC[C@@]2(C)C1CC[C@]1(C)C2CCC2[C@@]3(C)CC[C@H](C(C)(C)O)C3C[C@H](O)[C@]21C	-	-	-	MIC	-	-	12.5 µg/mL
C/C(=N/NC(=S)N1CCN(c2ccccc2)CC1)c1nccs1	-	-	H37Rv	MIC bound	-	resazurin	<6.25 µg/mL
CCOC(=O)N1CCN(c2ccc(C3CC(c4ccc([N+](=O)[O-])o4)=NO3)cc2)CC1	-	-	HN878	MIC	-	-	0.006 µg/mL
O=C(O)c1cc(-c2ccc(OCc3c(Cl)cccc3Cl)cc2)sc1NCc1ccc(Cl)cc1	-	-	H37Rv	MIC	-	resazurin	30.3 µM
Cn1cc(NC(=O)Nc2cc(C(=O)Nc3cc(C(=O)Nc4ccc5cc(S(=O)(=O)O)cc(S(=O)(=O)O)c5c4)n(C)c3)n(C)c2)cc1C(=O)Nc1cc(C(=O)Nc2ccc3cc(S(=O)(=O)O)cc(S(=O)(=O)O)c3c2)n(C)c1	-	-	H37Rv	MIC bound	-	BACTEC	>12.5 µg/mL
CCOC(=O)c1c(NC(=O)c2c(F)c(F)c(F)c(F)c2F)sc2c1CCNC2=O	-	-	H37Rv	MIC	gyrA mutant (D94N)	turbidity	3.2 µM
Cc1c(N=Nc2ccc(Cl)cc2)c(C)n([C@@H]2O[C@H](CO)[C@H](O)[C@H](O)[C@H]2O)c(=S)c1C#N	-	6.25 µg/mL	H37Rv	inhibition	-	resazurin	18%
C[C@@H]1Cn2cc(C(=O)O)c(=O)c3cc(F)c(N4CCN(/C(N)=N/C(N)=NCCCCCCN=C(N)/N=C(\N)N5CCN(c6c(F)cc7c(=O)c(C(=O)O)cn8c7c6O[C@@H](C)C8)CC5)CC4)c(c32)O1	-	-	ATCC 35830	MIC	-	broth dilution	0.625 µg/mL
CC(=O)O[C@H]1C2=C(C(=O)C(=O)C(C(C)C)=C2O)[C@@]2(C)CCCC(C)(C)[C@@H]2[C@@H]1O	-	-	H37Rv	MIC100	-	MTT	25 µg/mL
Brc1ccc(-c2cc(-c3ccc4c(c3)OCO4)c(-c3cccs3)n2Cc2ccccc2)cc1	-	-	H37Rv	MIC bound	-	BACTEC	>6.25 µg/mL
Cc1ccc(-c2cnnc(N3CCC(c4cccc(F)c4)C3)n2)o1	-	-	H37Rv-CV-lux-AB	MIC	-	low oxygen	47.9 µM
CC(=O)N[C@H]1[C@@H](O[C@@H]2O[C@H](C[C@@H](O)[C@H]3O[C@@H](n4ccc(=O)[nH]c4=O)[C@H](O)[C@@H]3O)[C@H](O)[C@H](O)[C@H]2NC(=O)/C=C/CC(C)C)O[C@H](CO)[C@@H](O)[C@@H]1O	-	-	RMP-R	MIC	-	-	>12.5 µg/mL
C=C[C@@H](O)C#CC#CC/C=C\CCCCCCC	-	-	H37Ra	EC50	-	resazurin	15.3 µM
O=C(Nc1ccc(Cl)cc1)Nc1nnc2nc(C(C(=O)c3ccc(O)cc3O)c3nc4nnc(NC(=O)Nc5ccc(Cl)cc5)n4[nH]c3=O)c(=O)[nH]n12	-	12.5 µg/mL	H37Rv	inhibition	-	BACTEC	87%
CCC1CCC2(CC1)SC(C)C(=O)N2NC(=O)C(O)(c1ccccc1)c1ccccc1	-	6.25 µg/mL	H37Rv	inhibition	-	-	53%
Cc1nc(-c2nc(C(=O)NCCC[S+](C)C)cs2)cs1.[Cl-]	-	-	H37Rv	MIC bound	-	BACTEC	>12.8 µg/mL
CCCCCCCOc1cccc(NC(=O)OC(C)CN2CCCCC2)c1	-	-	My 331/88	MIC	-	-	8 µM